Taken from: PubChem BioAssay AID624099 (ICCB-Longwood, 2012)
Here is a random part of about 21,000 deposited reagents. Over the whole deposit, 497 (2.4%) got an active call. 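Higher z means weaker E2 silencing; only reporter increases were scored, and knock-downs that hurt cell survival may mask genuine repressor factors.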 Reagents against one gene are numbered here. No sequences are given here.

Test: 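Knock-downs relieving repression by E2 of an HPV18 LCR luciferase reporter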 (primary screen)
Cells: human C33A cervical carcinoma cells (HPV-negative) stably expressing BPV1 E2 and an HPV18 LCR luciferase reporter
Knock-down reagent: siRNA pool against human genes, 40 nM
Time to read-out: 72 h
Detection: 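Per-well luciferase luminescence, z-scored on each plate against the plate mean and SD with control wells left out, then averaged across three replicate plates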
Scale: mean z-score and z-score: higher = stronger reporter signal, weaker E2 silencing
Hit rule: 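Hit if mean z-score reaches 2 and two or more of three replicate z-scores also reach 2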

Target gene	pool no.	mean z-score	z-score, replicate A	z-score, replicate B	z-score, replicate C	call
CA14	1	0.04	0.01	0.07	0.05	inactive
PIK3CB	1	2.12	2.16	2.05	2.15	active
LRRC37A11P	1	-0.24	-0.38	-0.11	-0.22	inactive
INPP5K	1	0.02	0.04	-0.02	0.05	inactive
PHACTR2-AS1	1	-2.55	-1.99	-2.36	-3.28	inactive
C1orf185	1	-0.35	-0.47	-0.29	-0.28	inactive
NECAP1	1	0.34	0.43	0.26	0.33	inactive
LENG8	1	-0.91	-0.65	-1.06	-1	inactive
SPSB2	1	0.22	0.24	0.01	0.4	inactive
ACKR1	1	0.77	0.83	0.71	0.76	inactive
IL18	1	1.69	1.75	1.72	1.6	inactive
SLC71A3P	1	-0.25	-0.38	-0.23	-0.13	inactive
RAB24	1	0.38	0.37	0.36	0.4	inactive
RTRAF	1	0.55	0.68	0.37	0.61	inactive
CRYBB3	1	-0.03	0.37	-0.29	-0.17	inactive
CCDC71L	1	0.3	0.16	0.43	0.32	inactive
C4orf46	1	0.74	0.65	1.12	0.45	inactive
PPA2	1	-0.58	-0.04	-0.53	-1.16	inactive
CABP7	1	0.3	0.05	0.34	0.52	inactive
MAL2	1	0.21	0.02	0.3	0.3	inactive
LINC01547	1	0.37	0.28	0.43	0.4	inactive
LINC01547	2	1.4	1.34	1.36	1.5	inactive
IQCE	1	0.32	0.43	0.12	0.42	inactive
NDUFB1	1	-2.61	-2.81	-2.73	-2.29	inactive
VSTM2L	1	-1.58	-1.79	-1.49	-1.46	inactive
ADGRD1	1	0.13	0.67	-0.06	-0.22	inactive
LOC390736 (retired record)	1	0.25	0.24	0.04	0.48	inactive
MCTP2	1	-0.91	-1.23	-0.61	-0.89	inactive
RPRD2	1	-0.37	-0.24	-0.78	-0.1	inactive
GULP1	1	-0.42	-0.52	-0.55	-0.21	inactive
RAB8A	1	0.58	0.8	0.76	0.17	inactive

Copied from above (3 entries):
Target gene	pool no.	mean z-score	z-score, replicate A	z-score, replicate B	z-score, replicate C	call
MAL2	1	0.21	0.02	0.3	0.3	inactive
LINC01547	1	0.37	0.28	0.43	0.4	inactive
LINC01547	2	1.4	1.34	1.36	1.5	inactive

Continued.
Target gene	pool no.	mean z-score	z-score, replicate A	z-score, replicate B	z-score, replicate C	call
RPSAP47	1	-2.4	-2.54	-2.18	-2.48	inactive
CEP170	1	0.02	-0.09	0.1	0.03	inactive
SRM	1	0.25	-0.26	-0.06	1.08	inactive
LRRN1	1	-0.53	-0.33	-1.01	-0.26	inactive
POLR1C	1	0.6	0.45	0.74	0.62	inactive
TNC	1	0.41	0.29	0.46	0.49	inactive
TBC1D24	1	-2.19	-2.35	-2.08	-2.15	inactive
GHRHR	1	-2.35	-1.75	-2.53	-2.79	inactive
LINC00467	1	1.43	1.23	1.61	1.46	inactive
GTF2H5	1	-0.1	-0.63	0.17	0.16	inactive
FLRT1	1	-0.92	-1.22	-0.48	-1.06	inactive
RPAP2	1	0.87	1.08	1.08	0.44	inactive
PCDHGB3	1	0.39	0.46	0.13	0.59	inactive
OTX2	1	-0.13	-0.22	-0.1	-0.08	inactive
SERPINA6	1	0.17	-0.31	0.62	0.19	inactive
LINC01936	1	-0.53	-0.6	-0.5	-0.48	inactive
DNAH7	1	0.18	0.17	0.14	0.24	inactive
LCOR	1	-0.7	-0.78	-0.59	-0.74	inactive
LCOR	2	0.28	0.1	0.42	0.31	inactive
RNPS1P1	1	-0.77	-0.83	-0.88	-0.61	inactive
ARHGAP35	1	-0.15	-0.28	0.03	-0.21	inactive
LOC392584 (retired record)	1	-1.71	-2.28	-1.17	-1.67	inactive
SH3GL2	1	-0.07	-0.12	-0.03	-0.07	inactive
AMELX	1	-1.17	-1.12	-1.21	-1.16	inactive
KERA	1	-2.96	-3.03	-3.03	-2.83	inactive
GHRL	1	1.54	1.54	1.63	1.45	inactive
